Compound potency records, mixed from different reports. Data source: NIAID ChemDB in PubChem.

Common to all: toxicity to cultured cells; cell line: C8166; measure: CC50

Blank or dashed fields: not listed here. CCn: concentration that lowers growth or viability of the cells by n%. Neighbouring rows are from separate reports.

smiles | read by | value
OC[C@H]1N[C@H](CO)[C@@H](O)[C@@H]1O | MTT | >500 µg/mL
O=c1c2cccn2c2ccccc2n1CCNC(=S)Nc1ccc(Cl)cn1 | - | 11 µM
O[C@H]1[C@H](O)[C@@H](O)CN2CC[C@H](O)[C@H]12 | MTT | >500 µg/mL
Cc1cc(O)c2c(c1)C(=O)c1cc(O[C@@H]3O[C@H](CO[C@@H]4O[C@@H](C)[C@H](O)[C@@H](O)[C@H]4O)[C@@H](O)[C@H](O)[C@H]3O)cc(O)c1C2=O | MTT | 756 µg/mL
Cc1cn([C@H]2C[C@H](N=[N+]=[N-])[C@@H](COP(=O)(Oc3ccc([N+](=O)[O-])cc3)Oc3ccc([N+](=O)[O-])cc3)O2)c(=O)[nH]c1=O | - | 40 µM
CC(C)=CCc1cc2ccc(=O)oc2c(CC=C(C)C)c1O | MTT | >200 µM
Cc1cn(C2CC(N=[N+]=[N-])C(COC(=O)c3cn4c5c(c(N6CCN(C)CC6)c(F)cc5c3=O)OC[C@@H]4C)O2)c(=O)[nH]c1=O | MTT | 146 µM
COc1ccc(S(=O)(=O)Nc2cc(Cl)ccc2OCC(=O)Nc2ccc(S(N)(=O)=O)cc2C)cc1 | MTT | 123 µM
CC(C)(C)NC(=O)[C@@H]1C[C@@H]2CCCC[C@@H]2CN1C[C@@H](O)[C@H](Cc1ccccc1)NC(=O)[C@H](CC(N)=O)NC(=O)c1ccc2ccccc2n1 | - | >0.001 µg/mL
COc1ccc(OC2=C(C=O)CC[C@@H]3[C@H]4CCCN5CCC[C@@H](CN23)[C@@H]45)cc1 | MTT | >200 µg/mL
Cc1cc(S(N)(=O)=O)ccc1NC(=O)COc1ccc(Cl)cc1C(=O)c1cc(Cl)cc(C#N)c1 | MTT | >386.8 µM
CCOP(=O)(N[C@@H](CC(C)C)C(=O)OC)OC[C@H]1O[C@@H](n2cc(C)c(=O)[nH]c2=O)C[C@@H]1N=[N+]=[N-] | MTT | >500 µg/mL
CCn1cc(C(=O)O)c(=O)c2cc(F)c(N3CCN(Cc4cn(C5CC(N=[N+]=[N-])C(CO)O5)c(=O)[nH]c4=O)CC3)cc21 | MTT | >342 µM
O=C1c2ccncc2C(=O)N1CCNC(=S)Nc1ccc(Br)cn1 | - | 52 µM
C=CC(C)(C)c1cc2cc3c(cc2oc1=O)O[C@H](C(C)(C)O)[C@H]3O | MTT | >200 µM
O=CC1=C(Oc2ccc(Cl)cc2)N2C[C@@H]3CCCN4CCC[C@@H]([C@H]34)[C@H]2CC1 | MTT | 90.12 µg/mL
CCn1cc(C(=O)O)c(=O)c2cc(F)c(N3CCN(Cc4cn(C5CC(N=[N+]=[N-])C(CO)O5)c(=O)[nH]c4=O)C(C)C3)c(F)c21 | MTT | >324 µM
O=c1c(O[C@@H]2O[C@H](CO)[C@@H](O)[C@H](O)[C@H]2O)c(-c2ccc(O)cc2)oc2cc(O)cc(O)c12 | - | 100 µg/mL
O=C(O)P(=O)(O)O | MTT | >500 µg/mL
C[C@@H]1O[C@@H](Oc2c(-c3cc(O)c(O)c(O)c3)oc3cc(O)cc(O)c3c2=O)[C@H](O)[C@H](O)[C@H]1O | - | >200 µg/mL
Cc1cc(S(N)(=O)=O)ccc1NC(=O)COc1ccc(Cl)cc1NS(=O)(=O)c1ccc([N+](=O)[O-])cc1 | MTT | 172 µM
COc1cc2cc3c(cc2oc1=O)OC(C)(C)C=C3 | MTT | >200 µM
Cc1ccc2c(c1)n(CCNC(=S)Nc1ccc(Br)cn1)c(=O)c1cccn12 | - | 14 µM
COC1=C(C=O)CC[C@@H]2[C@H]3CCCN4CCC[C@@H](CN12)[C@@H]34 | MTT | >200 µg/mL
Cc1cn(C2CC(N=[N+]=[N-])C(COC(=O)c3cn(C4CC4)c4cc(N5CCN(C(=O)OCc6ccccc6)CC5)c(F)cc4c3=O)O2)c(=O)[nH]c1=O | MTT | 130 µM
Nc1ccn([C@H]2CC[C@@H](CO)O2)c(=O)n1 | MTT | >500 µg/mL
C[C@H](Cn1cnc2c(N)ncnc21)OCP(=O)(O)O | - | >500 µM
CCN1CCN(c2cc3c(cc2F)c(=O)c(C(=O)OCC2OC(n4cc(C)c(=O)[nH]c4=O)CC2N=[N+]=[N-])cn3C2CC2)CC1 | MTT | >329 µM
O=C(O)C1=CC(=C(c2ccc(O)c(C(=O)O)c2)c2ccc(O)c(C(=O)O)c2)C=CC1=O | MTT | >500 µg/mL
O=C1CCC[C@@H]2[C@H]3CCCN4CCC[C@@H](CN12)[C@@H]34 | MTT | >200 µg/mL
Cc1ccc(S(=O)(=O)Nc2cc(Cl)ccc2OCC(=O)Nc2ccc(S(N)(=O)=O)cc2)cc1 | MTT | 196 µM
Nc1ncnc2c1ncn2[C@H]1CC[C@@H](CO)O1 | - | >1000 µM
C[C@@H]1O[C@@H](OC[C@H]2O[C@@H](Oc3c(-c4ccc(O)c(O)c4)oc4cc(O)cc(O)c4c3=O)[C@H](O)[C@@H](O)[C@@H]2O)[C@H](O)[C@H](O)[C@H]1O | - | 2880 µM
Nc1ccn([C@@H]2O[C@H](CO)C[C@@H]2F)c(=O)n1 | MTT | >500 µg/mL
Oc1cc(O)c2c(c1)O[C@H](c1ccc(O)c(O)c1)[C@H](O)C2 | - | >100 µg/mL
Nc1ncnc2c1ncn2CCOCP(=O)(O)O | - | >40 µM
CCOP(=O)(N[C@@H](C)C(=O)OC)OC[C@H]1O[C@@H](n2cc(C)c(=O)[nH]c2=O)C[C@@H]1N=[N+]=[N-] | - | 300 µM
C=CC(C)(C)c1cc2cc3c(c(CC=C(C)C)c2oc1=O)O[C@H](C(C)(C)O)C3 | MTT | >200 µM
O=C(O[C@@H]1Cc2c(O)cc(O)cc2O[C@@H]1c1ccc(O)c(O)c1)c1cc(O)c(O)c(O)c1 | - | >100 µg/mL
COC(=O)C(C)NP(=O)(OC[C@H]1O[C@@H](n2cc(C)c(=O)[nH]c2=O)C[C@@H]1N=[N+]=[N-])Oc1ccc([N+](=O)[O-])cc1 | - | 100 µM
Oc1cc(O)c2c(c1)O[C@H](c1cc(O)c(O)c(O)c1)[C@@H](O)C2 | - | >80 µg/mL
Cc1cc(S(N)(=O)=O)ccc1NC(=O)COc1ccccc1NS(=O)(=O)c1ccc(Cl)cc1 | MTT | 184 µM
COc1c(N2CCN(C(=O)OCc3ccccc3)C(C)C2)c(F)cc2c(=O)c(C(=O)OCC3OC(n4cc(C)c(=O)[nH]c4=O)CC3N=[N+]=[N-])cn(C3CC3)c12 | MTT | 25.11 µM